A mixed list of measured activities; the numbers were collected in NIAID ChemDB.

Common to all: growth or infection tests; agent: Mycobacterium avium complex; endpoint: MIC

An empty or dashed field is not shown. Rows are shuffled and stem from different studies.

compound,strain or isolate,result
COCCN(CCOC)c1cc(=O)c2nc3c(oc2c1)c1c(=O)c2c(O)c(C)c4c(c23)=C(O)[C@@](C)(O/C=C/[C@H](OC)[C@@H](C)[C@@H](OC(C)=O)[C@H](C)[C@H](O)[C@H](C)[C@@H](O)[C@@H](C)/C=C/C=C(/C)C(=O)N1)O4,31F093T,0.6 µg/mL
CCCCCCCCO[C@H]1OC([C@@H](COC)O[C@H]2O[C@H]([C@@H](O)CO)[C@@H](O)[C@@H]2O)[C@@H](OC)[C@@H]1OC,NJ211,>12.8 µg/mL
CC[C@H]1OC(=O)[C@H](C)[C@@H](OC2C[C@@](C)(OC)[C@@H](O)[C@H](C)O2)[C@H](C)[C@@H](O[C@@H]2O[C@H](C)C[C@H](N(C)C)[C@H]2O)C(C)(O)C[C@@H](C)/C(=N\OCCC2CCCCC2)[C@H](C)[C@@H](O)[C@]1(C)O,20039 (clarithromycin-susceptible),3.13 µg/mL
CO[C@H]1/C=C/O[C@@]2(C)Oc3c(C)c(O)c4c(=O)c(c5oc6cc(N7CCN(C(C)(C)C)CC7)cc(=O)c6nc5c4c3=C2O)NC(=O)/C(C)=C\C=C\[C@H](C)[C@H](O)[C@@H](C)[C@@H](O)[C@@H](C)[C@H](OC(C)=O)[C@@H]1C,31F093T,0.017 µg/mL
CO/C(=N\N=C\c1ccccc1F)c1ccncc1,12592 PI,>1 µg/mL
OC[C@H]1O[C@H](CSc2ccccc2)[C@@H](O)[C@@H]1O,3 strains,>64 µg/mL
CCNC(=O)OCCN=c1ssc2ccccc12,AN3,4 µg/mL
COc1ccc(/C(C)=N/NC(=O)c2ccncc2)cc1F,12592 PI,>20 µg/mL
CCCCCCCCO[C@@H]1O[C@@H]([C@H](COC)O[C@H]2O[C@H](COCc3ccccc3)[C@@H](OCc3ccccc3)[C@@H]2OCc2ccccc2)[C@H](OC)[C@H]1OC,NJ168,>128 µg/mL
CC(C)NC(=O)OCCn1sc2ccccc2c1=S,ISS 486,4 µg/mL
CCN(CC)CNC(=O)c1cnc(N(CC)CC)cn1,ATCC49601,>128 µg/mL
NNC(=O)c1ccncc1,17 strains,>10 µg/mL
CCCCN1CCN(c2cc(=O)c3nc4c(oc3c2)c2c(=O)c3c(O)c(C)c5c(c34)=C(O)[C@@](C)(O/C=C/[C@H](OC)[C@@H](C)[C@@H](OC(C)=O)[C@H](C)[C@H](O)[C@H](C)[C@@H](O)[C@@H](C)/C=C/C=C(/C)C(=O)N2)O5)CC1,31F093T,0.07 µg/mL
CCCCN(CCCC)CCC(O)c1cc2c(Cl)cc(Cl)cc2c2cc(C(F)(F)F)ccc12,,4 µg/mL
CCCN(CCC)CNC(=O)c1cnccn1,ATCC49601,>128 µg/mL
CCCCNC(=O)OCCN=c1ssc2ccccc12,ISS 486,4 µg/mL
COc1ccc(/C(C)=N/NC(=O)c2ccncc2)cc1OC,12592 PI,>20 µg/mL
CCCO/N=C1\[C@H](C)CC(C)(O)[C@H](O[C@@H]2O[C@H](C)C[C@H](N(C)C)[C@H]2O)[C@@H](C)[C@H](OC2C[C@@](C)(OC)[C@@H](O)[C@H](C)O2)[C@@H](C)C(=O)O[C@H](CC)[C@@](C)(O)[C@H](O)[C@H]1C,20096 (clarithromycin-resistant),>50 µg/mL
CO[C@H]1/C=C/O[C@@]2(C)Oc3c(C)c(O)c4c(=O)c(c5oc6cc(N7CCN(CC=C(C)C)CC7)cc(=O)c6nc5c4c3=C2O)NC(=O)/C(C)=C\C=C\[C@H](C)[C@H](O)[C@@H](C)[C@@H](O)[C@@H](C)[C@H](OC(C)=O)[C@@H]1C,31F093T,0.035 µg/mL
CCCCCCCCOC1O[C@@H](C(O)COC2O[C@@H](C(O)CO)[C@H](O)[C@H]2O)[C@H](O)[C@H]1O,NJ211,>128 µg/mL
CO/C(=N\N=C\c1ccc(F)cc1)c1ccncc1,12592 PI,>5 µg/mL
NC(=O)c1cnc(Cl)cn1,101,32 µg/mL
CC(C)(C)NC(=O)OCCn1sc2ccccc2c1=O,ATCC 15769,>32 µg/mL
CCCCCCCCOC1OC([C@H](CO)OC2O[C@@H](C(O)CO)[C@H](O)[C@H]2O)[C@H](O)[C@H]1O,NJ211,>128 µg/mL
CCCCN(C)CNC(=O)c1cnccn1,ATCC49601,>128 µg/mL
CO[C@H]1/C=C/O[C@@]2(C)Oc3c(C)c(O)c4c(=O)c(c5oc6cc(N7CCN(C(C)C)CC7)cc(=O)c6nc5c4c3=C2O)NC(=O)/C(C)=C\C=C\[C@H](C)[C@H](O)[C@@H](C)[C@@H](O)[C@@H](C)[C@H](OC(C)=O)[C@@H]1C,31F093T,0.07 µg/mL
CCCCCCCCO[C@@H]1O[C@@H](C(CO[C@@H]2O[C@@H](C(O)CO)[C@H](O)[C@H]2O)OC)[C@H](OC)[C@H]1OC,NJ304,>128 µg/mL
C/C=C/C/C=C/CCC(=O)[C@H]1O[C@H]1C(N)=O,,6.25 µg/mL
Nc1ccc(S(=O)(=O)c2ccc(N)cc2)cc1,DW6,64 µg/mL
COc1ccc(/C(C)=N/NC(=O)c2ccncc2)c(OC)c1,12592 PI,>10 µg/mL
CC[C@H]1OC(=O)[C@H](C)[C@@H](O[C@H]2C[C@@](C)(OC)[C@@H](OC(C)=O)[C@H](C)O2)[C@H](C)[C@@H](O[C@@H]2O[C@H](C)C[C@H](N(C)C)[C@H]2OC(=O)NNc2ccccc2)C(C)(O)C[C@@H](C)/C(=N\OCCCC2CCCCC2)[C@H](C)[C@@H](O)[C@]1(C)O,20092 (clarithromycin-resistant),0.78 µg/mL
O=C(NCN1CCCC1)c1cnccn1,101,>128 µg/mL
CCNC(=O)OCCn1sc2ccccc2c1=O,ATCC 15769,>32 µg/mL
C/C(=N\NC(=O)c1ccncc1)c1ccc(F)cc1,12592 PI,>5 µg/mL
CC[C@H]1OC(=O)[C@H](C)[C@@H](OC2C[C@@](C)(OC)[C@@H](O)[C@H](C)O2)[C@H](C)[C@@H](O[C@@H]2O[C@H](C)C[C@H](N(C)C)[C@H]2O)C(C)(O)C[C@@H](C)/C(=N\OCc2ccccc2)[C@H](C)[C@@H](O)[C@]1(C)O,20092 (clarithromycin-resistant),>50 µg/mL
C/C(=N\NC(=O)c1ccncc1)c1ccc(Cl)cc1Cl,12592 PI,>20 µg/mL
CCCCCCCCO[C@@H]1OC(C(CO[C@@H]2O[C@@H]([C@H](O)CO)[C@H](O)[C@H]2O)OC(C)=O)[C@H](OC(C)=O)[C@H]1OC(C)=O,NJ168,>128 µg/mL
CN1CCN(CNC(=O)c2cnccn2)CC1,ATCC49601,>128 µg/mL
CCCCCCCCO[C@@H]1O[C@@H](C(CO[C@@H]2O[C@@H]([C@H](O)CO)[C@H](O)[C@H]2O)OCc2ccccc2)[C@H](OCc2ccccc2)[C@H]1OCc1ccccc1,NJ304,>128 µg/mL
C/C(=N\NC(=O)c1ccncc1)c1cccc(C(F)(F)F)c1,12592 PI,>20 µg/mL
CN(CNC(=O)c1cnccn1)Cc1ccccc1,ATCC49601,128 µg/mL

Repeating the final 6 entries:

C/C(=N\NC(=O)c1ccncc1)c1ccc(Cl)cc1Cl ; strain or isolate: 12592 PI ; result: >20 µg/mL
CCCCCCCCO[C@@H]1OC(C(CO[C@@H]2O[C@@H]([C@H](O)CO)[C@H](O)[C@H]2O)OC(C)=O)[C@H](OC(C)=O)[C@H]1OC(C)=O ; strain or isolate: NJ168 ; result: >128 µg/mL
CN1CCN(CNC(=O)c2cnccn2)CC1 ; strain or isolate: ATCC49601 ; result: >128 µg/mL
CCCCCCCCO[C@@H]1O[C@@H](C(CO[C@@H]2O[C@@H]([C@H](O)CO)[C@H](O)[C@H]2O)OCc2ccccc2)[C@H](OCc2ccccc2)[C@H]1OCc1ccccc1 ; strain or isolate: NJ304 ; result: >128 µg/mL
C/C(=N\NC(=O)c1ccncc1)c1cccc(C(F)(F)F)c1 ; strain or isolate: 12592 PI ; result: >20 µg/mL
CN(CNC(=O)c1cnccn1)Cc1ccccc1 ; strain or isolate: ATCC49601 ; result: 128 µg/mL